# Results from PubChem BioAssay AID686976 (The Scripps Research Institute Molecular Screening Center, 2013).
# This is a selection; strong and weak results do not stand in their true shares. Activity calls are given as the source filed them. No stated cut-off is given here; in the data, active means inhibition above about 30%; inactive means the rest.
# Tested on: CCHF virus ovarian tumor domain protease (vOTU, L protein)
# Assay: CCHFV vOTU protease inhibitors, confirmation, biochemical, Pep-AMC substrate, fluorescence (AID 686976)
# Settings: Recombinant CCHFV vOTU, at 11.5 µM, hits give high values
row,Structure (SMILES),inhibition
1,Nc1cccc2c([As](=O)(O)O)cccc12,active: 72.1%
2,Nc1cccc2ccc([As](=O)(O)O)cc12,inactive: 16.7%
